Pooled drug test results. Numbers come from NIAID ChemDB, via PubChem.

Common to all: whole-cell or culture tests; species: HIV-1; read-out: inhibition

Inhibition is in % at the dose shown (toxicity tests: loss of growth or viability). Rows are shuffled and stem from different studies. An empty or dashed field is not shown.

smiles,mutations,strain,cell line,dose,read by,value
CC(=O)Nc1ccc(OC(=O)c2ccc(N=C(N)N)cc2)cc1,-,-,MT-4,10 µg/mL,XTT / p24,25%
Cc1c(-c2cnccn2)ssc1=S,-,IIIB,H9,60 µM,MTT / p24,90%
NCC(=O)NCC(=O)NCC=O,-,IIIB,H9,250 µg/mL,syncytia,0%
Nc1nc(I)c2ncn([C@H]3CC[C@@H](CO)O3)c2n1,-,IIIB,MT-2,20 µM,cytopathic effect / trypan blue,97%
CC(C)[C@H](NC(=O)c1ccc2ccccc2n1)C(=O)N[C@@H](Cc1ccccc1)[C@H](O)CN1CC[C@@H](OCc2ccncc2)C[C@H]1C(=O)NC(C)(C)C,-,Wg3522,PBMC,0.05 µM,p24,90%
CCOC(=O)c1c(C(C)C)c(C#N)c(=N)n2ccccc12,-,-,MT-2,4 µM,cytopathic effect,90%
CCCCCSCCCCCCCC(=O)O,-,IIIB,CEM + CEM-SS,6.3 µM,cytopathic effect / XTT,11.2%
CNC(=O)OCc1cccc(COC(=O)NC)n1,-,LAV,MT-4,100 µg/mL,-,0%
CS(=O)(=O)N1CCC(CC2C(=O)N(c3ccccc3)c3ccccc32)CC1,-,RF,MT-2,11.3 µM,plaque count,36%
NC12CC3CC(CC(C3)C1)C2,-,LAV,MT-4,100 µg/mL,-,99.9%
Nc1ncnc2c1ncn2[C@H]1CC[C@@H](CO)O1,-,LAV-1,CEM,100 µM,virus yield,>100%
O=C(c1ccccc1)N1CCC(CC2C(=O)N(c3ccccc3)c3ccccc32)CC1,-,RF,MT-2,11.3 µM,plaque count,70%
Nc1nc(N)c2ncn([C@H]3CC[C@@H](CO)O3)c2n1,-,IIIB,MT-2,200 µM,cytopathic effect / trypan blue,77%
CCNCC(O)c1cccc(O)c1,-,LAV,MT-4,100 µg/mL,-,0%
Cc1cn([C@H]2C[C@H](N=[N+]=[N-])[C@@H](/C=C/P(=O)(O)Oc3ccccc3)O2)c(=O)[nH]c1=O,-,IIIB,MT-4,200 µM,cytopathic effect / propidium iodide,0%
NC(N)=NCCC[C@H](NC(=O)[C@@H](N)Cc1ccc(O)cc1)C(=O)NCC(=O)N1CCC[C@H]1C(=O)NCC=O,-,IIIB,H9,250 µg/mL,syncytia,100%
Cn1c(=O)c2c(ncn2C)n(C)c1=O,-,LAV,MT-4,100 µg/mL,-,0%
Cc1cn([C@H]2C[C@H](N=[N+]=[N-])[C@@H](CO)O2)c(=O)[nH]c1=O,-,JR-FL,Macrophage,1 µM,-,83%
CSC[C@H](NC(=O)COc1cccc2cnccc12)C(=O)N[C@@H](Cc1ccccc1)[C@H](O)C(=O)N1CSC(C)(C)[C@H]1C(=O)NC(C)(C)C,-,RF,ATH8,0.3 µM,trypan blue,90%
O=C1N(c2ccccc2)c2ccccc2C1(CCc1cccnc1)CCc1cccnc1,-,RF,MT-2,11 µM,plaque count,57%
Cc1cn([C@H]2C[C@H](N=[N+]=[N-])[C@@H](CO)O2)c(=O)[nH]c1=O,-,LAV,U1(HIV-1 (LAV)) + U1,1 µM,plaque count / syncytia,13%
NCC(=O)N1CCC[C@H]1C(=O)NCC(=O)NCC=O,-,IIIB,H9,25 µg/mL,syncytia,85%
Cc1cn([C@H]2C[C@H](N=[N+]=[N-])[C@@H](CO)O2)c(=O)[nH]c1=O,-,-,MT-4,10 µg/mL,-,6%
O=C1N(c2ccccc2)c2ccccc2C1(Cc1nccn1Cc1ccccc1)Cc1nccn1Cc1ccccc1,-,RF,MT-2,11 µM,plaque count,72%
Cc1cn([C@H]2C[C@H](N=[N+]=[N-])[C@@H](CO)O2)c(=O)[nH]c1=O,-,SF162,Monocytes + Monocyte,0.0034 µg/mL,p24 / ELISA,90%
O=C(O)CCCCCCCCCCCI,-,IIIB,CEM + CEM-SS,20 µM,cytopathic effect / XTT,45.3%
CC1(C)[C@@H](O[C@H]2O[C@H](C(=O)O)[C@@H](O)[C@H](O)[C@H]2O[C@@H]2O[C@H](C(=O)O)[C@@H](O)[C@H](O)[C@H]2O)CC[C@]2(C)[C@H]3C(=O)C=C4[C@@H]5C[C@@](C)(C(=O)O)CC[C@]5(C)CC[C@@]4(C)[C@]3(C)CC[C@@H]12,-,EVK,MT-4,500 µg/mL,ELISA,95.3%
CN1CCN(CCCN2c3ccccc3Sc3ccc(Cl)cc32)CC1,-,LAV,MT-4,100 µg/mL,-,>96%
CCCCCOCCCCCCCC(=O)O,-,IIIB,CEM + CEM-SS,20 µM,cytopathic effect / XTT,13.4%
Nc1ccn([C@H]2CC[C@@H](CO)O2)c(=O)n1,-,LAV-1,HT4 + HT4-6C,0.00316 µM,syncytia,41%
COc1ccc(CN[C@@H](C(=O)N[C@H]2c3ccccc3C[C@H]2O)[C@H](O)[C@H](Cc2ccccc2)NC(=O)[C@@H](NC(=O)OCc2ccccc2)C(C)(C)C)cc1,-,SF162,Primary monocytes + Monocyte,0.32 µM,p24,90%
COc1cc(C[C@H]2C(=O)OC[C@@H]2Cc2ccc(OC)c(OC)c2)ccc1O,-,IIIB,MT-2,0.3 µg/mL,XTT,91%
NC(N)=NCCC[C@@H](C=O)NC(=O)CNC(=O)[C@@H]1CCCN1C(=O)CNC(=O)[C@@H](N)CCCN=C(N)N,-,IIIB,H9,25 µg/mL,syncytia,0%
OC[C@@H]1CC[C@H](n2cnc3cncnc32)O1,-,IIIB,ATH8,200 µM,cytopathic effect / trypan blue,3%
c1cc(CN2CCCNCCNCCCNCC2)ccc1CN1CCCNCCNCCCNCC1,-,SW30 CLADE C R5X4,PBMC,0.5 µM,p24,85%
NCC(=O)N1CCC[C@H]1C(=O)NCC=O,-,IIIB,H9,250 µg/mL,syncytia,100%
Cc1ccnc2c1NC(=O)c1cccnc1N2C1CC1,-,LAV-1,HT4 + HT4-6C,0.0316 µM,syncytia,51%
CCSCCCCCCCCCCCC(=O)O,-,IIIB,CEM + CEM-SS,6.3 µM,cytopathic effect / XTT,47%
CN1CCC(CC2(CC3CCN(C)CC3)C(=O)N(c3ccccc3)c3ccccc32)CC1,-,RF,MT-2,11 µM,plaque count,73%
C/C(=C(/CCO)SS/C(CCO)=C(\C)N(C=O)Cc1cnc(C)nc1N)N(C=O)Cc1cnc(C)nc1N,-,IIIB,MOLT-4/HIV-1(IIIB) + MOLT-4,125 µM,p24,80%
NC(=O)NO,-,IIIB,PBMC,100 µM,p24,20%
Nc1cccc(CN2C(=O)N(Cc3cccc(N)c3)[C@H](Cc3ccccc3)[C@H](O)[C@@H](O)[C@H]2Cc2ccccc2)c1,PR-L10F M46I D60E I84V,Thai (PR L10F M46I D60E I84V),MT-2,7.78 µM,virus yield,90%
Oc1ccc(/C=C/c2cc(O)cc(O)c2)cc1,-,IIIB,PBMC,5 µM,p24,10%
COc1ccc2c(c1)N(C[C@H](C)CN(C)C)c1ccccc1S2,-,LAV,MT-4,10 µg/mL,-,0%